Drawing on patent publication US20090305399A1, this text covers IC50, Kv1.3 current block, IC50, Kv1.1 current block and Kv1.3 IC50, whole cell patch clamp ePhys for six molecules.

A value given as a limit tells only on which side of the number the result lay.

In test [1] the target is human Kv1.3 channel (human), P22001. In words: cell-based or functional assay.
Test [2] has as its target T1, human Kv1.1 channel (human), Q09470.
T1 chain: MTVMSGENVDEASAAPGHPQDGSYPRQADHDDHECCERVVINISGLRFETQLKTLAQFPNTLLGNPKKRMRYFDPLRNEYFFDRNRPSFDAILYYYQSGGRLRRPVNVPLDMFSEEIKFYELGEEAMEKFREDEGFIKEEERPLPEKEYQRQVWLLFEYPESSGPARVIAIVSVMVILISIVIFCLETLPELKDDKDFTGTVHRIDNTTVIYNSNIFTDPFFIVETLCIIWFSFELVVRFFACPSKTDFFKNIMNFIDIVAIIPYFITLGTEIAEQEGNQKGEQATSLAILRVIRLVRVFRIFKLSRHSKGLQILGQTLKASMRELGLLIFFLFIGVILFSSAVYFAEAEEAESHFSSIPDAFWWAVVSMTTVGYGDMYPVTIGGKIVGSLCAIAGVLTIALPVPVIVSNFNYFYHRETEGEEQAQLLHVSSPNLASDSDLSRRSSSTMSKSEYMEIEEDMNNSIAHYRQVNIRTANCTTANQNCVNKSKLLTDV
In words: cell-based or functional assay.

Regarding GVIINVKCKISRQCLEPCKKAAMRFGKCMNGKCHCTPK (modifications not checked) [OSK1 Alanine Analog G22A], the IC50, Kv1.3 current block in test [1] was over 3 nM. For the same molecule, the IC50, Kv1.1 current block in test [2] is over 3 nM.

Molecule GVIINVKCKISRQCLEPCKKAGMRFGACMNGKCHCTPK (modifications not checked) [OSK1 Alanine Analog K27A] displayed an IC50, Kv1.1 current block in test [2] of over 3 nM.

In turn, GVIINVKCKISRQCLEPCKKAGMAFGKCMNGKCHCTPK (modifications not checked) [OSK1 Alanine Analog R24A] yielded an IC50, Kv1.3 current block in test [1] of over 3 nM.

GVIINVKCKIRRQCLEPCKKAGMRFGKCMNGKCHCTPK (modifications not checked) [OSK1 analogue S11R] yielded a Kv1.3 IC50, whole cell patch clamp ePhys in test [1] of 0.04 nM.

GVIINVKCKISRQCLEPCKKAGMRFGKCRNGKCHCTPK (modifications not checked) [OSK1 Arginine Analog M29R] yielded an IC50, Kv1.3 current block in test [1] of 0.2 nM.

Take GVIINVKCKISRQCLEPCKKAGMRFGKCMAGKCHCTPK (modifications not checked) [OSK1 Alanine Analog N30A]: the IC50, Kv1.1 current block in test [2] was over 3 nM.
